# Measured values from US20250276070A1.
# Biological target: His-tagged MPER peptide (HIV-1)
# Experiment: BLI, His-tagged target on Ni-NTA
Substance,Kd,koff,kon
T-01 MB IgG1 LALAP I253A,< 1 pM,< 1e-07 s⁻¹,225000 M⁻¹ s⁻¹
T-01 MB.v2 IgG1 M428L N434S (LS),< 1 pM,< 1e-07 s⁻¹,180000 M⁻¹ s⁻¹
T-01 MB IgG1 I253A,< 1 pM,< 1e-07 s⁻¹,421000 M⁻¹ s⁻¹
